Measurements reported in PubChem BioAssay AID624099 (ICCB-Longwood, 2012).
Screen: 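Host factors E2 relies on to silence an HPV18 LCR reporter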 (primary screen). System: human C33A cervical carcinoma cells (HPV-negative) stably expressing BPV1 E2 and an HPV18 LCR luciferase reporter. Reagents: siRNA pool against human genes, 40 nM. Time to read-out: 72 h. Detection: 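HPV18 LCR reporter light per well, converted to plate-wise z-scores that exclude control wells, and averaged over triplicate plates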. Reading the numbers: mean z-score and z-score: higher = stronger reporter signal, weaker E2 silencing. Active means: 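Hit if mean z-score reaches 2 and two or more of three replicate z-scores also reach 2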.
Shown is one part, drawn at random, of about 21,000 reagents. Of all reagents, 497 (2.4%) got an active call. 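Higher z means weaker E2 silencing; only reporter increases were scored, and knock-downs that hurt cell survival may mask genuine repressor factors.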 A number with no mark means an inactive call.

| gene knocked down | mean z-score | z-score, replicate A | z-score, replicate B | z-score, replicate C |
| --- | --- | --- | --- | --- |
| PEX11B (peroxisomal biogenesis factor 11 beta) | 0.68 | 0.72 | 0.57 | 0.74 |
| ITGAM (integrin subunit alpha M) | -0.68 | -0.76 | -0.63 | -0.65 |
| SGSM2 (small G protein signaling modulator 2) | 0.23 | 0.2 | 0.38 | 0.1 |
| EMB (embigin) | 1.68 | 1.64 | 1.54 | 1.87 |
| MGAT4B | 0.87 | 1.21 | 0.74 | 0.65 |
| CHAC1 (ChaC glutathione specific gamma-glutamylcyclotransferase 1) | -0.58 | -0.4 | -0.71 | -0.64 |
| CKAP2L (cytoskeleton associated protein 2L) | 0.22 | 0.05 | 0.27 | 0.34 |
| TBC1D9B (TBC1 domain family member 9B) | -1.02 | -1.1 | -1 | -0.96 |
| SEC24D (SEC24 homolog D, COPII component) | -0.31 | 0.06 | -0.67 | -0.32 |
| ZNF426 (zinc finger protein 426) | 0.35 | 0.76 | 0 | 0.27 |
| SLC6A12 | 0.46 | 0.33 | 0.5 | 0.54 |
| DNAJA4 (DnaJ heat shock protein family (Hsp40) member A4) | 0.89 | 0.93 | 0.81 | 0.92 |
| MRAP (melanocortin 2 receptor accessory protein) | 1.49 | 1.25 | 1.66 | 1.57 |
| PLAC1 (placenta associated 1) | 1.51 | 1.65 | 1.65 | 1.22 |
| MED21 (mediator complex subunit 21) | -3.04 | -2.85 | -3.31 | -2.96 |
| GCSAML (germinal center associated signaling and motility like) | -0.92 | -1.32 | -0.36 | -1.09 |
| SMIM43 (small integral membrane protein 43) | 0.32 | 0.24 | 0.28 | 0.45 |
| RPL11 (ribosomal protein L11) | -3 | -3.23 | -2.99 | -2.78 |
| EDARADD (EDAR associated via death domain) | -0.28 | -0.26 | -0.39 | -0.19 |
| SEPHS1P1 (selenophosphate synthetase 1 pseudogene 1) | -0.8 | -0.59 | -0.83 | -0.98 |
| LOC388897 (retired record) | 0.91 | 1.21 | 0.26 | 1.24 |
| SSC4D | 0.88 | 0.92 | 0.8 | 0.93 |
| PSMG3 (proteasome assembly chaperone 3) | 0.6 | 0.39 | 0.77 | 0.63 |
| SERF1A (small EDRK-rich factor 1A) | 0.21 | 0.34 | 0.24 | 0.04 |
| PPP1R2 (protein phosphatase 1 regulatory inhibitor subunit 2) | 0.48 | 0.48 | 0.28 | 0.68 |
| GPR63 (G protein-coupled receptor 63) | -2.05 | -2.27 | -1.9 | -1.98 |
| H3C3 (H3 clustered histone 3) | -1.52 | -1.38 | -1.55 | -1.63 |
| FBXL19 (F-box and leucine rich repeat protein 19) | -1.58 | -1.67 | -1.59 | -1.49 |
| MYH2 (myosin heavy chain 2) | 0.12 | -0.12 | -0.08 | 0.54 |
| ASXL1 (ASXL transcriptional regulator 1) | 0.82 | 0.8 | 0.66 | 0.99 |
| AMOTL2 (angiomotin like 2) | -0.57 | -0.27 | -0.79 | -0.65 |
| PNLIPRP3 (pancreatic lipase related protein 3) | 0.9 | 1.42 | 0.56 | 0.71 |
| CACNA1F (calcium voltage-gated channel subunit alpha1 F) | 1.29 | 1.23 | 1.09 | 1.53 |
| RTN4R (reticulon 4 receptor) | 1.82 | 1.99 | 1.96 | 1.5 |
| PTCH2 (patched 2) | -0.66 | -0.71 | -0.72 | -0.53 |

9 entries already listed, ordered by “z-score, replicate B”, highest first.
| gene knocked down | mean z-score | z-score, replicate A | z-score, replicate B | z-score, replicate C |
| --- | --- | --- | --- | --- |
| SSC4D | 0.88 | 0.92 | 0.8 | 0.93 |
| PSMG3 (proteasome assembly chaperone 3) | 0.6 | 0.39 | 0.77 | 0.63 |
| SMIM43 (small integral membrane protein 43) | 0.32 | 0.24 | 0.28 | 0.45 |
| LOC388897 (retired record) | 0.91 | 1.21 | 0.26 | 1.24 |
| GCSAML (germinal center associated signaling and motility like) | -0.92 | -1.32 | -0.36 | -1.09 |
| EDARADD (EDAR associated via death domain) | -0.28 | -0.26 | -0.39 | -0.19 |
| SEPHS1P1 (selenophosphate synthetase 1 pseudogene 1) | -0.8 | -0.59 | -0.83 | -0.98 |
| RPL11 (ribosomal protein L11) | -3 | -3.23 | -2.99 | -2.78 |
| MED21 (mediator complex subunit 21) | -3.04 | -2.85 | -3.31 | -2.96 |

The results go on:
| gene knocked down | mean z-score | z-score, replicate A | z-score, replicate B | z-score, replicate C |
| --- | --- | --- | --- | --- |
| PMS2P5 | 0.42 | 0.5 | 0.47 | 0.28 |
| SLC2A8 | 1.21 | 1 | 1.01 | 1.62 |
| TAF1D | -0.62 | -0.26 | -0.71 | -0.89 |
| KRT25 (keratin 25) | -1.7 | -1.63 | -1.68 | -1.78 |
| DEF8 (differentially expressed in FDCP 8 homolog) | -0.87 | -1.05 | -1.03 | -0.53 |
| LINC01098 (long independently transcribed non-coding RNA 1098) | 1 | 0.92 | 1.08 | – |
| HVCN1 (hydrogen voltage gated channel 1) | 1.21 | 1.36 | 1.3 | 0.99 |
| GDPD1 (glycerophosphodiester phosphodiesterase domain containing 1) | 0.15 | 0.16 | 0.08 | 0.21 |
| LDB2 (LIM domain binding 2) | -1.28 | -1.32 | -1.22 | -1.29 |
| EPHB3 (EPH receptor B3) | 0.98 | 1.34 | 0.98 | 0.63 |
| CDKN2D (cyclin dependent kinase inhibitor 2D) | 0.62 | -0.27 | 1.05 | 1.08 |
| FECH (ferrochelatase) | 0.99 | 0.86 | 0.92 | 1.18 |
| MBD3 (methyl-CpG binding domain protein 3) | -0.17 | 0.18 | -0.05 | -0.63 |
| DOCK2 (dedicator of cytokinesis 2) | 0.25 | 0.29 | 0.09 | 0.36 |
| PAPOLB (poly(A) polymerase beta) | 0.57 | 0.62 | 0.69 | 0.4 |
| AFG2B (AAA ATPase AFG2B) | 3.14 (active) | 3.21 | 2.88 | 3.32 |
| LOC389772 (retired record) | -3.7 | -3.15 | -4.25 | -3.69 |
| H4C13 (H4 clustered histone 13) | 1.22 | 1.42 | 1.03 | 1.21 |
| NDUFB7 (NADH:ubiquinone oxidoreductase subunit B7) | -0.73 | -0.78 | -0.7 | -0.71 |
| LOC389473 (chromosome 5 open reading frame 13 pseudogene) | -1 | -0.99 | -0.86 | -1.16 |
| CDC34 (cell division cycle 34, ubiquitin conjugating enzyme) | 0.25 | 0.22 | 0.31 | 0.22 |
| GPR37 (G protein-coupled receptor 37) | -0.26 | -0.5 | -0.16 | -0.11 |
